Pooled drug test results. Numbers come from NIAID ChemDB, via PubChem.

Common to all: whole-cell or culture tests; species: Hepatitis C virus; endpoint: EC50

ECn: concentration that inhibits the pathogen or its effect by n%.

| compound | strain or isolate | changes | method | cell line | value |
|---|---|---|---|---|---|
| CCOc1nc(NCc2ccc(S(N)(=O)=O)cc2)nc2ccc(-c3cccc(S(N)(=O)=O)c3)nc12 |  |  | replicon |  | <0.1 µM |
| CNC(=O)c1c(-c2ccc(F)cc2)oc2cc(N(C)S(C)(=O)=O)c(OCc3nc(C(=O)O)cs3)cc12 |  |  | replicon | Huh7 | >30 µM |
| CC(C)N=C1SC(c2ccc(NC(=O)[C@@H](C)NC(=O)Cc3ccccc3)cc2)C(=O)N1Cc1ccccn1 |  |  | replicon | Huh7 | <0.1 µM |
| C=C[C@@H]1C[C@]1(NC(=O)[C@@H]1C[C@@H](Oc2cc(-c3ccccc3)nc3cc(OC)ccc23)CN1C(=O)[C@@H](NC)C(C)(C)C)C(=O)NS(=O)(=O)C1CC1 | 1b |  | replicon | Huh7 | <5 µM |
| CO[C@@H](C(=O)N[C@H](C)C(=O)Nc1ccc(C2SC(=NC(C)C)N(Cc3ccccn3)C2=O)cc1)c1ccccc1 |  |  | replicon | Huh7 | <0.1 µM |
| C=C[C@@H]1C[C@]1(NC(=O)[C@@H]1C[C@@H](Oc2cc(-c3ccccc3)nc3cc(OC)ccc23)CN1C(=O)[C@@H](NC(=O)CCl)C(C)(C)C)C(=O)NS(=O)(=O)C1CC1 | 1b |  | replicon | Huh7 | <0.05 µM |
| COC(=O)N[C@H](C(=O)N1CCC[C@H]1c1ncc(-c2ccc(-c3ccc(-c4cnc([C@@H]5CCCN5C(=O)[C@@H](NC(=O)OC)C(C)C)[nH]4)cc3)cc2)[nH]1)C(C)C | 1a | Q30K | luciferase | Lunet | 0.19 µM |
| CC(=O)c1ccc(-c2cc(N(C(=O)c3ccc(Cl)cc3Cl)C(C)C)c(C(=O)O)s2)s1 | 1a |  | luciferase / replicon |  | >5 µM |
| C=C[C@H]1C[C@@]1(NC(=O)[C@@H]1C[C@@H](Oc2cc(-c3ccccc3)nc3cc(OC)ccc23)CN1C(=O)[C@@H](NC(=O)OC(C)(C)C)C(C)C)C(=O)NS(=O)(=O)C1(COC)CC1 | 1b |  | replicon | Huh7 | <0.05 µM |
| C=C[C@@H]1C[C@]1(NC(=O)[C@@H]1C[C@@H](Oc2cc(-c3ccccc3)nc3cc(OC)ccc23)CN1C(=O)[C@@H](NC(=O)OC(C)(C)C)C(C)(C)C)C(=O)NS(=O)(=O)c1ccc(F)c(Cl)c1 | 1b |  | replicon | Huh7 | <0.5 µM |
| CC(C)(N)C(=O)Nc1ccc(-c2ccc3nc(N)nc(O[C@@H]4CCOC4)c3n2)cc1F |  |  | replicon | Huh7 | <0.3 µM |
| COc1cccc(CC(=O)N/N=C/c2ccccc2OS(=O)(=O)c2ccc(OCc3cnc(Cl)s3)cc2)c1 |  |  | replicon | Huh7 | >50 µM |
| CCCCCOc1ccc(N(C(=O)CO)c2nc(-c3cccnc3)cs2)cc1C(F)(F)F |  |  |  |  | <1 µM |
| C=C[C@H]1CC1(NC(=O)[C@@H]1C[C@@H](Oc2cc(-c3ccccc3)nc3cc(OC)ccc23)CN1C(=O)[C@@H](NC(=O)OC(C)(C)C)C(C)C)C(=O)O | 1b |  | replicon | Huh7 | <0.05 µM |
| COCCOc1nc(N)nc2ccc(-c3ccc(C(=O)NC(C)C)cc3)nc12 |  |  | replicon | Huh7 | 0.3–1 µM |
| N#Cc1c(Nc2ccccc2Cl)s[nH]c1=O |  |  | replicon | Huh7 | 10–50 µM |
| NS(=O)(=O)c1ccc(CNc2nc(NCC(F)(F)F)c3nc(-c4cc[nH]c(=O)c4)ccc3n2)cc1 |  |  | replicon |  | <0.1 µM |
| COc1cc(O[C@@H]2C[C@@H](C(=O)NC3(C(=O)NS(=O)(=O)C4CC4)CC34CCC4)N(C(=O)[C@@H](NC(=O)OC(C)(C)C)C(C)(C)C)C2)c2ccc(-c3ccccc3)cc2n1 | 1b |  | replicon | Huh7 | <5 µM |
| C=CC1C[C@@]1(NC(=O)[C@@H]1C[C@@H](Oc2cc(-c3ccccc3)nc3cc(OC)ccc23)CN1C(=O)[C@@H](NC(=O)Oc1ccc(OC)cc1)C(C)(C)C)C(=O)NS(=O)(=O)C1(Cc2ccccc2)CC1 | 1b |  | replicon | Huh7 | 0.05–0.5 µM |
| COc1cccc(CC(=O)N/N=C/c2ccccc2OS(=O)(=O)c2ccc(OC)cc2OC)c1 |  |  | replicon | Huh7 | <5 µM |
| C[C@@H](NC(=O)OCc1ccccc1)C(=O)Nc1ccc(C2SC(=Nc3ccc(C(F)(F)F)cc3)N(Cc3ccco3)C2=O)cc1 |  |  | replicon | Huh7 | 1–5 µM |
| CCOc1nc(NCc2ccc(CS(=O)(=O)NC(C)C)cc2)nc2ccc(-c3ccc(F)cc3)nc12 |  |  | replicon |  | <0.1 µM |
| CC[C@@H]1C[C@]1(NC(=O)[C@@H]1C[C@@H](Oc2cc(-c3ccccc3)nc3cc(OC)ccc23)CN1C(=O)[C@@H](NC(=O)CC1CC1)C(C)C)C(=O)NS(=O)(=O)C1CC1 | 1b |  | replicon | Huh7 | <0.05 µM |
| Cc1ccccc1Nc1s[nH]c(=O)c1C#N |  |  | replicon | Huh7 | 10–50 µM |
| NS(=O)(=O)c1ccc(CNc2nc(NCC(F)(F)F)c3nc(-c4ccnc(C(F)(F)F)c4)ccc3n2)cc1 |  |  | replicon |  | <0.1 µM |
| C=CC1C[C@@]1(NC(=O)[C@@H]1C[C@@H](Oc2cc(-c3ccccc3)nc3cc(OC)ccc23)CN1C(=O)[C@@H](NC(=O)OCC(C)(C)C)C(C)(C)C)C(=O)NS(=O)(=O)C1(Cc2ccccc2)CC1 | 1b |  | replicon | Huh7 | 0.05–0.5 µM |
| N#Cc1c(NCC2CCCO2)s[nH]c1=O |  |  | replicon | Huh7 | >50 µM |
| O=C(Cc1ccccc1)N/N=C/c1ccccc1OS(=O)(=O)c1cc(Cl)ccc1Cl |  |  | replicon | Huh7 | >50 µM |
| CNC(=O)c1c(-c2ccc(F)cc2)oc2cc(N3CCOCC3)c(OCc3noc(C(C)(C)C)n3)cc12 |  |  | replicon | Huh7 | <1 µM |
| C=C[C@H]1C[C@@]1(NC(=O)[C@@H]1C[C@@H](Oc2cc(-c3ccccc3)nc3cc(OC)ccc23)CN1C(=O)[C@@H](NC(=O)OC(C)(C)C)C(C)C)C(=O)NS(=O)(=O)C1(CCOC)CC1 | 1b |  | replicon | Huh7 | <0.05 µM |
| O=C(Cc1cc(F)c(F)c(F)c1)N/N=C/c1ccccc1OS(=O)(=O)c1ccc(C(F)(F)F)cc1 |  |  | replicon | Huh7 | <5 µM |
| CNC(=O)c1c(-c2ccc(F)cc2)oc2cc(N(C)S(C)(=O)=O)c(OCc3ncc[nH]3)cc12 |  |  | replicon | Huh7 | <1 µM |
| C=C[C@H]1C[C@@]1(NC(=O)[C@@H]1C[C@@H](Oc2cc(-c3ccccc3)nc3cc(OC)ccc23)CN1C(=O)[C@@H](NC(=O)OC(C)(C)C)C(C)(C)C)C(=O)NS(=O)(=O)C1(Cc2cccnc2)CC1 | 1b |  | replicon | Huh7 | 0.05–0.5 µM |
| CC(C)N(C(=O)c1ccc(Cl)cc1F)c1cc(-c2ccccc2)sc1C(=O)O | 1b |  | luciferase / replicon |  | 1–5 µM |
| CCOc1nc(NCc2ccon2)nc2ccc(-c3ccc(F)cc3)nc12 |  |  | replicon |  | <0.1 µM |
| C=C[C@@H]1C[C@]1(NC(=O)[C@@H]1C[C@@H](Oc2cc(-c3ccccc3)nc3cc(OC)ccc23)CN1C(=O)[C@@H](NC(=O)OC(C)(C)C)[C@@H](C)CC)C(=O)NS(=O)(=O)C1CC1 | 1b |  | replicon | Huh7 | <0.5 µM |
| CCCCCCCCOc1ccc(N(C(=O)CCC(=O)O)c2nc(-c3cccnc3)cs2)cc1C(F)(F)F.[Na+] |  |  |  |  | <1 µM |
| CNC(=O)c1c(-c2ccccc2)oc2ccc(C#N)cc12 |  |  | replicon | Huh7 | <30 µM |
| O=C(Cc1ccc(SC(F)(F)F)cc1)N/N=C/c1ccccc1OS(=O)(=O)c1ccc(C(F)(F)F)cc1 |  |  | replicon | Huh7 | 5–50 µM |
| C=CC1C[C@@]1(NC(=O)[C@@H]1C[C@@H](Oc2cc(-c3ccccc3)nc3cc(OC)ccc23)CN1C(=O)[C@@H](NC(=O)COC)C(C)(C)C)C(=O)NS(=O)(=O)C1(Cc2ccccc2)CC1 | 1b |  | replicon | Huh7 | 0.05–0.5 µM |
| C[C@@H](NC(=O)OCc1ccccc1)C(=O)Nc1ccc(C2SC(=Nc3cccc(F)c3)N(CCc3cccs3)C2=O)cc1 |  |  | replicon | Huh7 | 0.1–1 µM |
| N#Cc1c(NC2CCCCC2)s[nH]c1=O |  |  | replicon | Huh7 | >50 µM |
| C=CCCCCCCCC1(S(=O)(=O)NC(=O)[C@]2(NC(=O)[C@@H]3C[C@@H](Oc4cc(-c5ccccc5)nc5cc(OC)ccc45)CN3C(=O)[C@@H](NC(=O)OC(C)(C)C)C(C)(C)C)C[C@@H]2C=C)CC1 | 1b |  | replicon | Huh7 | <0.05 µM |
| COc1cccc(CC(=O)N/N=C/c2c(C)cccc2OS(=O)(=O)c2ccc(C)cc2)c1 |  |  | replicon | Huh7 | <5 µM |
| N#Cc1cccc(Nc2s[nH]c(=O)c2C#N)c1 |  |  | replicon | Huh7 | 1–10 µM |
| O=C(CC1CCCC1)N/N=C/c1ccccc1OS(=O)(=O)c1ccc(C(F)(F)F)cc1 |  |  | replicon | Huh7 | <5 µM |
| COCC(C)N(C(=O)c1ccc(Cl)cc1Cl)c1cc(-c2ccccc2)sc1C(=O)O | 1a |  | replicon / ELISA |  | 1–5 µM |
| CC(C)COc1ccc(N(C(N)=O)c2nc(-c3ccc(F)cc3)cs2)cc1C(F)(F)F |  |  |  |  | <1 µM |
| O=C(Cc1ccccc1)N/N=C/c1ccccc1OCc1cccc2ccccc12 |  |  | replicon | Huh7 | 5–50 µM |
| CC(C)N(C(=O)c1ccc(Cl)cc1Cl)c1cc(-c2ccc(-c3cn4ccccc4n3)cc2)sc1C(=O)O | 1a |  | replicon / ELISA |  | 0.05–0.1 µM |
| O=C(N/N=C/c1ccccc1OS(=O)(=O)c1ccc(C(F)(F)F)cc1)c1cccc2ccccc12 |  |  | replicon | Huh7 | <5 µM |
| NC(=O)c1ccc(-c2ccc3nc(NCc4ccc(F)cc4)nc(NCC(F)(F)F)c3n2)cc1 |  |  | replicon |  | <0.1 µM |
| C[C@@H](NC(=O)OCc1ccccc1)C(=O)Nc1ccc(C2SC(=Nc3cccc(F)c3)N(CCc3ccc(F)c(F)c3F)C2=O)cc1 |  |  | replicon | Huh7 | 1–5 µM |
| NS(=O)(=O)c1ccc(CNc2nc(NCC(F)(F)F)c3nc(-c4ccc(N5CCC(O)C5=O)cc4)ccc3n2)cc1 |  |  | replicon |  | <0.1 µM |
| CCC(C)(O)COc1cc2c(C(=O)NC)c(-c3ccc(F)cc3)oc2cc1N1CCOCC1 |  |  | replicon | Huh7 | <10 µM |
| CC(C)N(C(=O)c1ccc(Cl)cc1Cl)c1cc(-c2ccc(-c3cc4ncccc4o3)cc2)sc1C(=O)O | 1b |  | luciferase / replicon |  | 0.01–0.05 µM |
| CCCCCCCCc1ccc(N(C(N)=O)c2nc(-c3cccnc3)c(F)s2)cc1C(F)(F)F |  |  |  |  | <1 µM |
| COc1ccc2c(O[C@@H]3C[C@@H](C(=O)O)N(C(=O)OC(C)(C)C)C3)cc(-c3ccccc3)nc2c1 | 1b |  | replicon | Huh7 | <0.05 µM |
| CNC(=O)c1c(-c2ccc(F)c(Cl)c2)oc2ccc(OC)cc12 |  |  | replicon | Huh7 | <10 µM |
| NC(=O)COc1ccc2c(c1)S(=O)(=O)N=C(c1c(O)c3cc(F)ccc3n(CCC3CC3)c1=O)N2 | 1b 33778 |  | replicon |  | 0.062 µM |

A second listing of 5 rows from above:

compound | strain or isolate | changes | method | cell line | value
C=C[C@@H]1C[C@]1(NC(=O)[C@@H]1C[C@@H](Oc2cc(-c3ccccc3)nc3cc(OC)ccc23)CN1C(=O)[C@@H](NC)C(C)(C)C)C(=O)NS(=O)(=O)C1CC1 | 1b |  | replicon | Huh7 | <5 µM
CC(C)COc1ccc(N(C(N)=O)c2nc(-c3ccc(F)cc3)cs2)cc1C(F)(F)F |  |  |  |  | <1 µM
CCCCCOc1ccc(N(C(=O)CO)c2nc(-c3cccnc3)cs2)cc1C(F)(F)F |  |  |  |  | <1 µM
C=C[C@H]1C[C@@]1(NC(=O)[C@@H]1C[C@@H](Oc2cc(-c3ccccc3)nc3cc(OC)ccc23)CN1C(=O)[C@@H](NC(=O)OC(C)(C)C)C(C)C)C(=O)NS(=O)(=O)C1(CCOC)CC1 | 1b |  | replicon | Huh7 | <0.05 µM
CCC(C)(O)COc1cc2c(C(=O)NC)c(-c3ccc(F)cc3)oc2cc1N1CCOCC1 |  |  | replicon | Huh7 | <10 µM

Blank or dashed fields: not listed here. a–b is a range or a potency band. Neighbouring rows are from separate reports.